Data as given in paper doi:10.1101/2024.08.25.609621 (bioRxiv, 2024).
Where “and” joins values, the source holds several entries; their conditions need not be identical. Identical values can stand only once.

Experiments:
[1] = target: SARS-CoV-2 NSP3 macrodomain (Mac1) (Severe acute respiratory syndrome coronavirus 2, UniProt P0DTD1)
[2] = target: SARS-CoV-2 NSP3 macrodomain (Mac1), P43 crystal form (Severe acute respiratory syndrome coronavirus 2, UniProt P0DTD1)

Cc1c[nH]c2ncnc(NCC3(O)CCCCC3)c12 [AVI-3761, 1-(((5-methyl-7H-pyrrolo[2,3-d]pyrimidin-4-yl)amino)methyl)cyclohexan-1-ol]
Hill slope [1]: 1.1
Hillslope [1]: 1.1
1-BDC [2]: 0.2
1-BDC (PanDDA run, DMSO background map) [2]: 0.2 and 0.19
2*(1-BDC) (%) [2]: 40%
Binding site [2]: Adenosine
Hit (PanDDA run, DMSO background map) [2]: TRUE
Hit (PanDDA run, overall) [2]: TRUE
Refined ligand occupancy (%) [2]: 60%
Total number of conformations [2]: 1
X-ray crystal structure [2]: TRUE
